Pooled drug test results. Numbers come from NIAID ChemDB, via PubChem.

Shared fields: growth or infection tests; organism: Candida albicans; read-out: inhibition

Neighbouring rows are from separate reports.

structure | strain | read by | tested at | result
Cc1cc(C)nc(NS(=O)(=O)c2ccc(N=Cc3c[nH]c4ccccc34)cc2)n1 | - | - | 200 µg/mL | 60%
COc1ccc(Sc2c(S(=O)c3ccccc3)c(O)c3ccccc3c2O)cc1 | - | - | 0.2 µg/mL | 46.5%
COc1ccc(C(Cc2ccc(Cl)cc2Cl)C(c2ccc(OC)cc2)n2ccnc2)cc1 | 28 strains | - | 256 µg/mL | 100%
Cc1ccc(SC2=C(Sc3ccc(C)cc3)C(=O)c3ccccc3C2=O)cc1 | - | - | 0.2 µg/mL | 38.2%
Cc1c(C(=O)N(CCO)CCO)cc(-c2ccc([N+](=O)[O-])cc2)n1Cc1ccc(Cl)cc1 | 20 strains | - | 200 µg/mL | 0%
C[C@H]1[C@H](O)[C@@H](C)/C=C/C=C/C=C/C=C/C=C/C=C/C=C/[C@H](O[C@@H]2O[C@H](C)[C@@H](O)[C@H](N)[C@@H]2O)C[C@@H]2O[C@](O)(C[C@@H](O)C[C@@H](O)CC[C@H](O)[C@@H](O)C[C@@H](O)CC(=O)O[C@H]1C)C[C@H](O)[C@H]2C(=O)O | ATCC 90028 | broth dilution | 1 µg/mL | 100%
O=C1C(Nc2ccc(Cl)cc2)=C(S(=O)c2ccccc2)C(=O)c2ccccc21 | - | - | 0.2 µg/mL | 48%
Cc1c(C(=O)O)c(-c2ccc(F)cc2)cn1-c1ccc(Br)cc1 | 40 strains | - | 16.77 µg/mL | 2.5%
COc1ccc(CC(c2ccc(OC)cc2)n2ccnc2)cc1 | 28 strains | - | 256 µg/mL | 100%
O=C1C=C(S(=O)c2ccccc2)C(=O)c2ccccc21 | - | - | 0.2 µg/mL | 38.6%
CCCOc1ccc(SCC#CCN2CCCCC2)cc1 | CNCM 1180-79 | - | 78 µg/mL | 50%
Cc1c(C(=O)N2CCN(C)CC2)cc(-c2ccc([N+](=O)[O-])cc2)n1C | 20 strains | - | 200 µg/mL | 0%
Cc1ccc(-n2cc(-c3ccc(Cl)cc3)c(C(=O)O)c2C)cc1 | 40 strains | - | 52.92 µg/mL | 2.5%
CS(=O)(=O)OC[C@H]1CO[C@](Cn2ccnc2)(c2ccc(-c3ccccc3)cc2)O1 | 44 strains | - | 256 µg/mL | 42.1%
CC(C)(O)c1cn(-c2ccc3ccccc3c2)nn1 | URM 4384 | broth dilution | 2048 µg/mL | 0%
COc1ccc(NC2=C(S(=O)c3ccccc3)C(=O)c3ccccc3C2=O)cc1 | - | - | 0.2 µg/mL | 44.5%
O=C(Cn1cncn1)c1ccc([N+](=O)[O-])cc1 | Fluconazole-resistant | broth dilution | 100 µg/mL | 23%
NS(=O)(=O)c1ccc(N=Cc2c[nH]c3ccccc23)cc1 | - | - | 200 µg/mL | 40%
CCCCCCCCn1c(-c2ccc([N+](=O)[O-])cc2)cc(C(=O)N(CCO)CCO)c1C | 20 strains | - | 200 µg/mL | 0%
Cc1c(C(=O)O)c(-c2ccc(F)cc2)cn1-c1ccc(F)cc1 | 40 strains | - | 41.67 µg/mL | 2.5%
CC1(C)O[C@H]2[C@H](O)[C@@H](N=[N+]=[N-])C=C(c3ccc(C=O)cc3)[C@H]2O1 | ATCC 10231 | broth dilution / turbidity | 7.8 µg/mL | 24.18%
CCCCCCCCCCn1c(-c2ccc([N+](=O)[O-])cc2)cc(C(=O)N(CCO)CCO)c1C | 20 strains | - | 200 µg/mL | 0%
C[C@H]1[C@H](O)[C@@H](C)/C=C/C=C/C=C/C=C/C=C/C=C/C=C/[C@H](O[C@@H]2O[C@H](C)[C@@H](O)[C@H](N)[C@@H]2O)C[C@@H]2O[C@](O)(C[C@@H](O)C[C@@H](O)CC[C@H](O)[C@@H](O)C[C@@H](O)CC(=O)O[C@H]1C)C[C@H](O)[C@H]2C(=O)O | SC5314 | broth dilution | 1 µg/mL | 100%
CC(C)(O)c1cn(-c2ccc([N+](=O)[O-])cc2)nn1 | URM 3719 | broth dilution | 2048 µg/mL | 0%
OC[C@H]1CO[C@](Cn2ccnc2)(c2ccc(-c3ccccc3)cc2)O1 | 44 strains | - | 256 µg/mL | 76.3%
CC(C)(O)c1cn(-c2cccc3ccccc23)nn1 | URM 3716 | broth dilution | 2048 µg/mL | 0%
Cc1ccc(-n2cc(-c3ccc(Br)cc3)c(C(=O)O)c2C)cc1 | 40 strains | - | 47.92 µg/mL | 5%
Cc1ccc(-n2cc(C(C)(C)O)nn2)cc1C | URM 4125 | broth dilution | 2048 µg/mL | 0%
Cc1c(C(=O)O)c(-c2ccc(Br)cc2)cn1-c1ccc(Cl)cc1 | 40 strains | - | 17.32 µg/mL | 2.5%
CCC(c1ccc(Cl)cc1)C(c1ccc(OC)cc1)n1ccnc1 | 28 strains | - | 256 µg/mL | 100%
Cc1c(C(=O)O)c(-c2ccc(Cl)cc2)cn1-c1ccc(F)cc1 | 40 strains | - | 83.33 µg/mL | 10%
CCCOc1ccc(SCC#CCN2CCOCC2)cc1 | CNCM 1180-79 | - | 78 µg/mL | 50%
CCCCCCn1c(-c2ccc([N+](=O)[O-])cc2)cc(C(=O)N(CCO)CCO)c1C | 20 strains | - | 200 µg/mL | 0%
NCCCC[C@H](NC(=O)[C@@H](N)CCCCN)C(=O)N[C@@H](CCC(N)=O)C(=O)N[C@@H](CCCN=C(N)N)C(=O)O | ATCC 10231 | - | 12.5 µM | 0%
CS(=O)(=O)c1ccc(NC(=O)Oc2c(Cl)c(Cl)c(Cl)c(Cl)c2Cl)cc1 | - | - | 25 µg/mL | inactive
Cc1cc(C=Nc2ccc(N=Cc3cc(C)cc(/C=N/Nc4nc5ccccc5s4)c3O)cc2)c(O)c(/C=C/Nc2nc3ccccc3s2)c1 | - | turbidity | 25 µg/mL | 6.76%
Cc1cc(NS(=O)(=O)c2ccc(N=Cc3c[nH]c4ccccc34)cc2)no1 | - | - | 200 µg/mL | 25%
O=C(OC[C@H]1CO[C@](Cn2ccnc2)(c2ccc(-c3ccccc3)cc2)O1)c1ccccc1 | 44 strains | - | 256 µg/mL | 87.1%
CCOc1ccc(SCC#CCN2CCN(C)CC2)cc1 | CNCM 1180-79 | - | 78 µg/mL | 50%
OC(Cn1cncn1)c1ccc(F)cc1F | Fluconazole-resistant | broth dilution | 80 µg/mL | 24%
COc1ccc(CC(c2ccc(OC)cc2)n2cnnc2)cc1 | 28 strains | - | 256 µg/mL | 57%
COc1ccc(C(=O)Cn2ccnc2)cc1 | Fluconazole-resistant | broth dilution | 80 µg/mL | 55%
O=S(=O)(Nc1ncccn1)c1ccc(N=Cc2c[nH]c3ccccc23)cc1 | - | - | 200 µg/mL | 35%

An empty or dashed field is not shown. Inhibition is in % at the dose shown (toxicity tests: loss of growth or viability). For "inactive" no cut-off is given.